Anti-infective test results gathered from many reports (values: NIAID ChemDB through PubChem).

Shared fields: growth or infection tests; agent: Aspergillus flavus; endpoint: MIC

Lines come from different laboratories, so protocols vary.

SMILES | strain | method | setting | value
O=c1c(N2CCOCC2)c(N2CCN(S(=O)(=O)Cc3ccccc3)CC2)cnn1-c1ccccc1 | ND83 | broth dilution | - | 3.13 µg/mL
CCOC(=O)c1c(N)oc2ccc(O)cc12 | KCCM 11899 | broth dilution | - | 25 µg/mL
Cc1nc2c(s1)C(=O)C(Nc1ccc(Cl)cc1)=C(Cl)C2=O | KCCM 11899 | broth dilution | - | 50 µg/mL
COc1ccc(-c2n[nH]c(-c3cn(C4CCN(C)CC4)nn3)n2)cc1 | - | agar | - | 40 µg/mL
Cc1cc(=O)oc2c(C=Nc3cccc4cccc(N=Cc5c(O)ccc6c(C)cc(=O)oc56)c34)c(O)ccc12 | MTCC 1883 | - | - | 10 µg/mL
OC(Cn1cncn1)(Cn1cncn1)c1ccc(F)cc1F | NCIM 539 | agar | - | 5 µg/mL
CN1CCC(n2cc(-c3nc(-c4ccc(Cl)cc4)n[nH]3)nn2)CC1 | - | agar | - | 30 µg/mL
Clc1ccccc1-c1n[nH]c(CN2CCc3sccc3C2)n1 | NCIM 539 | agar | - | 100 µg/mL
CCC(C)CC(C)CCCCCCCCC(=O)N[C@H]1C[C@@H](O)[C@H](NCCN)NC(=O)[C@@H]2[C@@H](O)CCN2C(=O)[C@H]([C@H](O)CCN)NC(=O)[C@H]([C@H](O)[C@@H](O)c2ccc(O)cc2)NC(=O)[C@@H]2C[C@@H](O)CN2C(=O)[C@H]([C@@H](C)O)NC1=O | CBS 625.66 | broth dilution | - | 128 µg/mL
Cc1nc2c(s1)C(=O)C(Nc1ccc(I)cc1)=C(Cl)C2=O | KCCM 11899 | broth dilution | - | 6.3 µg/mL
COC(=O)c1c(N)oc2ccc(O)cc12 | KCCM 11899 | broth dilution | - | 25 µg/mL
Clc1ccc(-c2n[nH]c(CN3CCc4sccc4C3)n2)cc1 | NCIM 539 | agar | - | 75 µg/mL
Cc1ccc(CC(=O)Nc2nc(C)cs2)cc1 | NCIM 524 | - | - | 12.5 µg/mL
CC(C)CC1NC(=O)CC(CCCCCCCCC(C)O)OC(=O)C(CC(C)C)NC(=O)C(CC(C)C)NC(=O)C(CC(C)C)NC(=O)C(C(C)C)NC(=O)C(CC(=O)O)NC(=O)C(CC(C)C)NC1=O | ATCC 11496 | absorbance | - | 8 µg/mL
Cn1c(=O)c(-c2[nH][nH]c(=O)c2N=Nc2ccccc2Cl)c(O)c2ccccc21 | ATCC 28542 | - | - | 50 µg/mL
c1ccc(-c2n[nH]c(-c3cn(C4CCNCC4)nn3)n2)cc1 | - | agar | - | 40 µg/mL
c1ccc(-c2n[nH]c(CN3CCc4sccc4C3)n2)cc1 | NCIM 539 | agar | - | >200 µg/mL
Cn1c(=O)c(-c2[nH][nH]c(=O)c2N=Nc2ccc(N)cc2)c(O)c2ccccc21 | ATCC 28542 | - | - | 50 µg/mL
c1ccc(C(c2ccccc2)c2n[nH]c(CN3CCc4sccc4C3)n2)cc1 | NCIM 539 | agar | - | 150 µg/mL
Cn1c(=O)c(-c2[nH][nH]c(=O)c2/C=N/c2ncccn2)c(O)c2ccccc21 | ATCC 28542 | - | - | >100 µg/mL
C[C@@H]1C/C=C/C=C/C=C/C=C/[C@H](OC2O[C@H](C)[C@@H](O)[C@H](N)[C@@H]2O)CC2O[C@](O)(C[C@@H](O)C[C@H]3O[C@@H]3/C=C/C(=O)O1)C[C@H](O)[C@H]2C(=O)O | Clinical isolates | broth dilution | - | 8–32 µg/mL
CCC1/C=C/C=C/C=C/C=C/C(OC2OC(C)C(O)C(N)C2O)CC2OC(O)(CC(O)CC(O)C(O)/C=C/C(=O)OC1C)CC(O)C2C(=O)O | CGMCC 3.289 | broth dilution | - | 6.25 µg/mL
Cc1nc2c(s1)C(=O)C(Nc1ccc(C)c(C)c1)=C(Cl)C2=O | KCCM 11899 | broth dilution | - | 6.3 µg/mL
COc1ccc(/C=c2\c(=O)[nH][nH]\c2=C2/C(=O)c3ccccc3N(C)C2=O)cc1 | ATCC 28542 | - | - | >100 µg/mL
COc1ccc(NC2=C(Cl)C(=O)c3nc(C)sc3C2=O)cc1 | KCCM 11899 | broth dilution | - | 1.6 µg/mL
C[C@H]1[C@H](O)[C@@H](C)/C=C/C=C/C=C/C=C/C=C/C=C/C=C/[C@H](O[C@@H]2O[C@H](C)[C@@H](O)[C@H](N)[C@@H]2O)C[C@@H]2O[C@](O)(C[C@@H](O)C[C@@H](O)CC[C@H](O)[C@@H](O)C[C@@H](O)CC(=O)O[C@H]1C)C[C@H](O)[C@H]2C(=O)O | Clinical isolate | XTT | - | 2 µg/mL
Cc1nc2c(s1)C(=O)C(Nc1ccc(C#N)cc1)=C(Cl)C2=O | KCCM 11899 | broth dilution | - | 6.3 µg/mL
CN1CCC(n2cc(-c3nc(-c4ccccc4)n[nH]3)nn2)CC1 | - | agar | - | 30 µg/mL
Cc1c(N=Cc2c[nH]c3ccccc23)c(=O)n(-c2ccccc2)n1C | - | - | - | 256 µM
C[C@H]1[C@H](O)[C@@H](C)/C=C/C=C/C=C/C=C/C=C/C=C/C=C/[C@H](O[C@@H]2O[C@H](C)[C@@H](O)[C@H](N)[C@@H]2O)C[C@@H]2O[C@](O)(C[C@@H](O)C[C@@H](O)CC[C@H](O)[C@@H](O)C[C@@H](O)CC(=O)O[C@H]1C)C[C@H](O)[C@H]2C(=O)O | - | agar diffusion / agar | - | 20 µg/mL
CCN1CCC(n2cc(-c3nc(-c4ccc(OC)cc4)n[nH]3)nn2)CC1 | - | agar | - | 70 µg/mL
CC(C)S(=O)(=O)N1CCN(c2cnn(-c3cc(F)cc(F)c3)c(=O)c2OC2CCC(F)C2)CC1 | ND255 | broth dilution | - | 0.03 µg/mL
CCc1c(OC)ccc2sc(C)nc12 | KCCM 11899 | broth dilution | - | >100 µg/mL
Cn1c(=O)c(-c2[nH][nH]c(=O)c2C=Nc2ccncc2)c(O)c2ccccc21 | ATCC 28542 | - | - | 25 µg/mL
COc1cc(/C=C/C(C)=O)ccc1O | MTCC 277 | broth dilution | - | 963 µM
Cn1c(=O)c(-c2[nH][nH]c(=O)c2N=Nc2ccc(Cl)cc2)c(O)c2ccccc21 | ATCC 28542 | - | - | >100 µg/mL
C[C@H]1[C@H](O)[C@@H](C)/C=C/C=C/C=C/C=C/C=C/C=C/C=C/[C@H](O[C@@H]2O[C@H](C)[C@@H](O)[C@H](N)[C@@H]2O)C[C@@H]2O[C@](O)(C[C@@H](O)C[C@@H](O)CC[C@H](O)[C@@H](O)C[C@@H](O)CC(=O)O[C@H]1C)C[C@H](O)[C@H]2C(=O)O | - | - | - | 20 µg/mL
C[C@H]1[C@H](O)[C@@H](C)/C=C/C=C/C=C/C=C/C=C/C=C/C=C/[C@H](O[C@@H]2O[C@H](C)[C@@H](O)[C@H](N)[C@@H]2O)C[C@@H]2O[C@](O)(C[C@@H](O)C[C@@H](O)CC[C@H](O)[C@@H](O)C[C@@H](O)CC(=O)O[C@H]1C)C[C@H](O)[C@H]2C(=O)O | 204304 | broth dilution | - | 0.25 µg/mL
C[C@H]1[C@H](O)[C@@H](C)/C=C/C=C/C=C/C=C/C=C/C=C/C=C/[C@H](O[C@@H]2O[C@H](C)[C@@H](O)[C@H](N)[C@@H]2O)C[C@@H]2O[C@](O)(C[C@@H](O)C[C@@H](O)CC[C@H](O)[C@@H](O)C[C@@H](O)CC(=O)O[C@H]1C)C[C@H](O)[C@H]2C(=O)O | NBRC 4295 | broth dilution | 48 h | 4 µg/mL
Cc1nc2c(s1)C(=O)C(Nc1cccc(F)c1)=C(Cl)C2=O | KCCM 11899 | broth dilution | - | 25 µg/mL
CC(C)C1C(=O)CC(c2ccccc2)N(C(=O)CCl)C1c1ccccc1 | - | - | - | >200 µg/mL

Blank or dashed fields: not listed here. Two numbers with a dash give a range or band.